From ChEMBL document CHEMBL4834412, “2,4,5-Trisubstituted Pyrimidines as Potent HIV-1 NNRTIs: Rational Design, Synthesis, Activity Evaluation, and Crystallographic Studies” (J Med Chem, 2021)

By UniProt entry, the sequences of proteins in these tests, tags left out. Where a name states a change or a piece, a line headed by the entry shows the natural chain unless it says otherwise.
UniProt Q12809: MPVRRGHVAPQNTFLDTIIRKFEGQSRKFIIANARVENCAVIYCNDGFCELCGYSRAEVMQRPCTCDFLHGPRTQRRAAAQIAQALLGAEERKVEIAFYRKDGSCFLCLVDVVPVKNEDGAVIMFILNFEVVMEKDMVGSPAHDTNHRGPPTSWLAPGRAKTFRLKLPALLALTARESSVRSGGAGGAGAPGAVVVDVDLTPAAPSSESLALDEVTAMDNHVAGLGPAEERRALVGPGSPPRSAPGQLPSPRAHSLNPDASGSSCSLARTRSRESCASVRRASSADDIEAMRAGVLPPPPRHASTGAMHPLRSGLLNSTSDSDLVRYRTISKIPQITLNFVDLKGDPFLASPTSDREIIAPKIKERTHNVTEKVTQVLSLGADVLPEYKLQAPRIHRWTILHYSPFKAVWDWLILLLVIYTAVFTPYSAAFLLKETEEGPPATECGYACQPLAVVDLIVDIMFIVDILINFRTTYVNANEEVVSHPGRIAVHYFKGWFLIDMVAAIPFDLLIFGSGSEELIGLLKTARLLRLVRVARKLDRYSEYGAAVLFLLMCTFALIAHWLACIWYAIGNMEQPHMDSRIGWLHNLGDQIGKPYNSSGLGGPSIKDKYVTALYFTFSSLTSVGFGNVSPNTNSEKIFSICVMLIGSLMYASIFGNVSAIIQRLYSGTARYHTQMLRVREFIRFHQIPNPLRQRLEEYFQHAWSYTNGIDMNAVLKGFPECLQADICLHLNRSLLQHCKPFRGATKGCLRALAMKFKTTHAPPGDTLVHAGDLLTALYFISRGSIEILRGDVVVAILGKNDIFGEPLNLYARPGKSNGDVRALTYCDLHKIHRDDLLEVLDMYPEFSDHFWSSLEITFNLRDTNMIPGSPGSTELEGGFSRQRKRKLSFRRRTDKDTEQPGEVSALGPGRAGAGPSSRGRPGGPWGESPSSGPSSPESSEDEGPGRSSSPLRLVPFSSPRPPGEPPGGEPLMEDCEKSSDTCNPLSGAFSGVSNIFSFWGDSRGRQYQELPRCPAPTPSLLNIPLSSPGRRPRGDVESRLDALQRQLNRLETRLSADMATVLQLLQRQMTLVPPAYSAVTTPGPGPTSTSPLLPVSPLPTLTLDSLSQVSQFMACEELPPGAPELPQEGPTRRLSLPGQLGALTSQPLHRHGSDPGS

How the values were obtained:
[1] = in vivo; conditions: Sprague-Dawley, rat, po, 20 mg/kg
[2] = molecular target: Human immunodeficiency virus type 1 reverse transcriptase (Human immunodeficiency virus 1, UniProt Q72547); assay: Inhibition of recombinant wild type HIV1 reverse transcriptase assessed as inhibition of biotin-dUTP incorporation into template
[3] = in vivo; conditions: Sprague-Dawley, rat, po, 20 mg/kg; remark: listed apart in the source
[4] = system: MT4; assay: Cytotoxicity in mock-infected human MT4 assessed as reduction in cell viability incubated for 5 days by MTT assay; format: ADME, cell-based; conditions: mt4, 120 h, time 5 day
[5] = Clearance in Sprague-Dawley rat at 2 mg/kg, iv; conditions: in vivo
[6] = in vivo; conditions: Sprague-Dawley, rat, po, 20 mg/kg; remark: listed apart in the source
[7] = in vivo; conditions: Sprague-Dawley, rat, iv, 2 mg/kg
[8] = Selectivity index, ratio of CC50 for cytotoxicity against human MT4 cells reduction in cell viability for 5 days by MTT assay to EC50 for antiviral activity against wild type HIV-1 strain IIIB infected in human MT4 cells assessed as reduction in virus-induced cytopathogenicity by MTT assay; format: toxicity, cell-based; conditions: time 5 day, read-out: Selectivity Index
[9] = Selectivity index, ratio of CC50 for cytotoxicity against human MT4 cells reduction in cell viability for 5 days by MTT assay to EC50 for antiviral activity against NNRTI-resistant HIV-1 RES056 harboring RT K103N/Y181C mutant infected in human MT4 cells assessed as protection against virus-induced cytopathogenicity after 5 days by MTT assay; format: toxicity, cell-based; conditions: time 5 day, read-out: Selectivity Index
[10] = molecular target: Voltage-gated inwardly rectifying potassium channel KCNH2 (Homo sapiens, UniProt Q12809)
[11] = in vivo; conditions: Sprague-Dawley, rat, po, 20 mg/kg; remark: listed apart in the source
[12] = in vivo; conditions: Sprague-Dawley, rat, iv, 2 mg/kg; remark: listed apart in the source
[13] = in vivo; conditions: Sprague-Dawley, rat, iv, 2 mg/kg; remark: listed apart in the source
[14] = Half life in Sprague-Dawley rat at 2 mg/kg, iv; conditions: in vivo

Cc1cc(C#N)cc(C)c1Oc1nc(NC2CCN(Cc3ccc(C(N)=O)cc3)CC2)ncc1-c1ccncc1
half-life [1]: 104 min | IC50 [2]: 113 nM | AUC(0-inf) [3]: 466 ng·h/mL | CC50 [4]: 36 µM | clearance [5]: 110 mL/min/kg | AUC(0-t) [6]: 460 ng·h/mL | AUC(0-inf) [7]: 303 ng·h/mL | selectivity ratio at 120 h [8]: 9600 | selectivity ratio at 120 h [9]: 1470 | IC50 [10]: 1190 nM | Cmax [11]: 174 ng/mL | AUC(0-t) [12]: 293 ng·h/mL | Cmax [13]: 278 ng/mL | half-life [14]: 148 min
